Data on one substance can be found in publication PMC9604285, “Rat Group IIA Secreted Phospholipase A2 Binds to Cytochrome c Oxidase and Inhibits Its Activity: A Possible Episode in the Development of Alzheimer’s Disease” (International Journal of Molecular Sciences, 2022).

As a reminder, the IC50 is the concentration at which inhibition is half-maximal. Low values mean inhibition by little substance, high ones a need for much substance.

The assay concerns the target subunit II of cytochrome c oxidase (CCOX-II) (porcine (endogenous in cerebral cortex)) (UniProt P50667). Nature of the assay: cross-linking.

ammodytoxin (Atx), unlabelled (enzyme) came in with an IC50 of 6 nM.
